Results on one substance are retold here after paper PMC3823233.

As a reminder, the Kd is the constant that tells how readily two partners part at equilibrium.

For this test, the target named is JRFL gp120 core containing a short (mini) V3 region (HIV-1 (isolate JR-FL)). Briefly: ITC. A general note: Isothermal titration calorimetry measures the heat released or taken up as one component is titrated into another.

The substance PGT 135 Fab returned a Kd of 82 nM.
